Test results taken from publication PMC3828397, “Characterization of PfTrxR inhibitors using antimalarial assays and in silico techniques” (Chemistry Central Journal, 2013).

Experiments:
[1] = system: P. falciparum chloroquine sensitive (D6, Sierra Leone) strain; experiment: In vitro antimalarial assay (SYBR green), D6 strain; type: cell-based, Plasmodium falciparum; conditions: Selectivity index
[2] = system: P. falciparum chloroquine resistant (W2, IndoChina) strain; experiment: In vitro antimalarial assay (SYBR green), W2 strain; type: cell-based, Plasmodium falciparum; conditions: Selectivity index

For `CC1=CC(=O)c2ccccc2C1=O` [MD, menadione], the “SI D6” value [1] was 3.8 and the “SI W2” value [2] was 2.5.

Which two values form the index is not stated here.
